Measured values from several laboratories, pooled; numbers as filed in NIAID ChemDB.

All rows: tests in culture; organism: Herpes simplex virus 2; measure: inhibition

For "inactive" no cut-off is given. Blank or dashed fields: not listed here. Inhibition is in % at the dose shown (toxicity tests: loss of growth or viability). Rows are shuffled and stem from different studies.

smiles | cells | read by | strain or isolate | tested at | value
Nc1ccn([C@H]2O[C@@H](CO)[C@H](O)[C@H]2F)c(=O)n1 | VERO | virus yield | G | 1 µM | 58%
CCCCCCCCCCCC(=O)OCC(CO[C@@H]1O[C@H](CO)[C@H](O)[C@H](O)[C@H]1O)OC(=O)CCCCCCCCCCC | VERO | plaque count | 186 | 50 µg/mL | 50%
CC(C)CCCC(COS(=O)(=O)O)C1CCC2C3CC=C4C[C@H](O)[C@@H](OS(=O)(=O)O)CC4(C)C3CCC12C | VERO | plaque count | G | 20 µg/mL | 51.5%
O=c1[nH]c(=O)n([C@H]2C[C@H](O)[C@@H](CO)O2)cc1CCBr | HEP-2 | cytopathic effect |  | 100 µg/mL | ≥25%
CC(C)=CCC[C@@H](COS(=O)(=O)O)C1CCC2C3CC[C@H]4C[C@H](OS(=O)(=O)O)[C@@H](O)CC4(C)C3CCC21C | VERO | plaque count | G | 80 µg/mL | 100%
CCCCCCCCCC(=O)OCC(CO[C@@H]1O[C@H](CO)[C@@H](O)[C@H](O)[C@H]1O)OC(=O)CCCCCCCCC | VERO | plaque count | 186 | 50 µg/mL | inactive
CN1C(=O)NC(=O)N([C@H]2C[C@H](O)[C@@H](CO)O2)C1(C)C | BHK-21 | plaque count | 35D | 50 µM | 90%
CCCCCCCC/C=C\CCCCCCCC(=O)OCC(CO[C@@H]1O[C@H](CO)[C@@H](O)[C@H](O)[C@H]1O)OC(=O)CCCCCCC/C=C\CCCCCCCC | VERO | plaque count | 186 | 50 µg/mL | 25%
O=c1[nH]c(=O)n([C@H]2C[C@H](O)[C@@H](CO)O2)cc1CCCl | PRK | cytopathic effect | G | 2.1 µg/mL | ≥25%
CC12CCC3C(C[C@H](OS(=O)(=O)O)[C@H]4C[C@@H](OS(=O)(=O)O)CCC34C)C1CCC2C(=O)CO | VERO | plaque count | G | 80 µg/mL | 6%
O=c1[nH]c(=O)n([C@H]2C[C@H](O)[C@@H](CO)O2)cc1I | HEP-2 | cytopathic effect | K979 | 0.3 µg/mL | ≥25%
CCCCC/C=C\C/C=C\CCCCCCCC(=O)OCC(CO[C@@H]1O[C@H](CO)[C@H](O)[C@H](O)[C@H]1O)OC(=O)CCCCCCC/C=C\C/C=C\CCCCC | VERO | plaque count | 186 | 50 µg/mL | 50%
Cc1cn([C@@H]2O[C@H](CO)[C@@H](O)[C@@H]2F)c(=O)[nH]c1=O | HEP-2 | cytopathic effect | K979 | 0.1 µg/mL | ≥25%
O=c1[nH]c(=O)n([C@H]2C[C@H](O)[C@@H](CO)O2)cc1CCCl | HEP-2 | cytopathic effect |  | 3 µg/mL | ≥25%
O=c1ccn([C@H]2C[C@H](O)[C@@H](CO)O2)c(=O)[nH]1 | HeLa | virus yield |  | 50 µM | 80%
O=c1[nH]c(=O)n([C@H]2C[C@H](O)[C@@H](CO)O2)cc1CCCCl | HEP-2 | cytopathic effect |  | 30 µg/mL | ≥25%
O=c1ccn([C@@H]2O[C@H](CO)[C@@H](O)[C@@H]2F)c(=O)[nH]1 | VERO | virus yield | G | 0.5 µM | 87%
O=c1[nH]c(=O)n([C@H]2C[C@H](O)[C@@H](CO)O2)cc1CCO | HEP-2 | cytopathic effect |  | 100 µg/mL | ≥25%
CC12CC[C@H](OS(=O)(=O)O)CC1=CCC1C2CCC2(C)C(C(=O)COS(=O)(=O)O)CCC12 | VERO | plaque count | G | 80 µg/mL | 34%
Cc1cn([C@@H]2O[C@H](CO)[C@@H](O)[C@@H]2F)c(=O)[nH]c1=O | VERO | virus yield | G | 0.1 µM | 51%

2 of the rows above, restated:

smiles	cells	read by	strain or isolate	tested at	value
CCCCCCCCCC(=O)OCC(CO[C@@H]1O[C@H](CO)[C@@H](O)[C@H](O)[C@H]1O)OC(=O)CCCCCCCCC	VERO	plaque count	186	50 µg/mL	inactive
CC12CC[C@H](OS(=O)(=O)O)CC1=CCC1C2CCC2(C)C(C(=O)COS(=O)(=O)O)CCC12	VERO	plaque count	G	80 µg/mL	34%